The list shows a part of the results. Env chains of viruses from a treatment-interruption trial, translated from the printed DNA. IC50 / IC80 of two broadly neutralizing antibodies; lower = more sensitive virus; >50 µg/ml means not reached and <0.001 µg/ml is below the lowest dose. No active / inactive call.
B1: HIV-1 Env, rebound clone, placebo arm (protein)
chain: MRVKGIRKSCQRLWRWGIMLLGMLMISSATEKLWVTVYYGVPVWKEANTTLFCASDAKAYDTEAHNVWATHACVPTDPNPQELDLENVTENFNMWKNGMVEQMHEDVISLWDQSLKPCVKLTPLCVTLNCTNDVNFRVNSSNSNSSINSSSSISNSSIEEKGEIKNCSFNITTSIRDKVTKEYALFYRLDIVSIKDDKSDNSNNTNTRYRLINCNTSVITQACPKVSFEPIPIHYCAPAGFAILKCKDREFNGSGTCQNVSTVQCTHGIKPVVSTQLLLNGSLAEGEVVIRSENFSDNAKTIIVQLSRPVVINCTRPNNNTRKSIHIAPGRTFYATGDIIGDIRQAHCNISKRDWNKTLKEVKGKLEKQYNKTILFNQSSGGDPEIVFHTFNCAGEFFYCNTTNLFNNNITINNGTNGTNTNENITLPCRIKQIINLWQEVGKAMYAPPIKGQIRCSSNITGLLLTRDGGLNENRTNDTVRPGGGDMRDNWRSELYRYKVVEIEPLGIAPTKAKRRVVQREKRAVGAIGAMFLGLLGAAGSTMGAASITLTVQARLVLSGIVQQQNNLLRAIEAQQHLLQLTVWGIKQLQARVLAVERYLKDQQLLGIWGCSGKLICTTSVPWNSSWSNRSLEYIWNNMTWMQWEREIDNYTGKIYTLIEEAQHKQEENELELLKLDEWSNLWNWFDISKWLWYIKIFIMIVGGLIGLRIVFAVISIVNRVRKGYSPLSFQTHFPAPRGPDRPGGTEEEGGDRDRDRSTRLVDGFLALVWDDLRSLILFLYHHLRDLLLIITRIVGLLGRRGWEILKYWWNLLQYWSRELKLSAISLYNATAVAVAEGTDRVIEVVQRIFRGVLHVPRRIRQGLERILV
B2: HIV-1 Env, rebound clone, placebo arm (protein)
chain: MRVKGIRKSCQRLWRWGIMLLGMLMISSATEKLWVTVYYGVPVWKEANTTLFCASDAKAYDTEAHNVWATHACVPTDPNPQELDLENVTENFNMWKNGMVEQMHEDVISLWDQSLKPCVKLTPLCVTLNCTNDVNLRVNSSNSNSSINSSSSISNSSIEEKGEIKNCSFNITTSIRDKVTKEYALFYRLDIVSIKDDKSDNSNDTNTRYRLINCNTSVITQACPKVSFEPIPIHYCAPAGFAILKCKDREFNGSGTCQNVSTVQCTHGIKPVVSTQLLLNGSLAEGEVVIRSENFSDNAKTIIVQLSRPVVINCTRPNNNTRKSIHIAPGRTFYATGDIIGDIRQAHCNISKRDWNKTLKEVKGKLEKQYNKTILFNQSSGGDPEIVFHTFNCAGEFFYCNTTNLFNNNITINNGTNGTNTNENITLPCRIKQIINLWQEVGKAMYAPPIKGQIRCSSNITGLLLTRDGGLNENRTNDTVRPGGGDMRDNWRSELYRYKVVEIEPLGIAPTKAKRRVVQREKRAVGAIGAMFLGLLGAAGSTMGAASITLTVQARLVLSGIVQQQNNLLRAIEAQQHLLQLTVWGIKQLQARVLAVERYLKDQQLLGIWGCSGKLICTTSVPWNSSWSNRSLEYIWNNMTWMQWEREIDNYTGKIYTLIEEAQHKQEENELELLKLDEWSNLWNWFDISKWLWYIKIFIMIVGGLIGLRIVFAVISIVNRVRKGYSPLSFQTHFPAPRGPDRPGGTEEEGGDRDRDRSTRLVDGFLALVWDDLRSLILFLYHHLRDLLLIITRIVGLLGRRGWEILKYWWNLLQYWSRELKLSAISLYNATAVAVAEGTDRVIEVVQRIFRGVLHVPRRIRQGLERILV
B3: HIV-1 Env, rebound clone, placebo arm (protein)
chain: MRVKGIRKSYQPLWVGGILLLGMLMLCSTTEQLWVTVYYGVPVWKEATTTLFCASDAKGYDTEAHNVWATHACVPTDPNPQELKLENVTENFNMWKNDMVQQMHEDIISLWDQSIKPCVKLTPLCVTLNCSGVNINNTNANTTSNNTSWREMKEEIKNCSFNHTDIRNKMRKDYALFNSLDVIPIDRNDTTSYMLTSCNTSVITQACPKISFEPIPIHYCAPAGFAILKCNDKKFNGTGPCKNVSLVQCTHGIKPVVSTQLLLNGSLAEEDIVIRSEDFTNNAKTIIVQLNSSIAINCSRPNNNTRKSIHLGPGAAIYATGDIIGNIRQAHCNLSKVDWENTLDKIAKKLQGQFGENKTIVFNHSSGGDPEIVQHSFNCGGEFFYCNTTNLFFWNSTGHRNNTPNNSTDIITIQCRIKQIINRWQQVGRAIYAPPISGNISCSSIITGLLLTRDGGNSSNSNETFRPGGGDMRDNWRSELYKYKVVSIEPLGIAPTRARRRVVQREKRAVGMIGAMFLGFLGAAGSTMGAASVALTVQARQLLSGIVQQQNNLLRAIEAQQHMLQLTVWGIKQLQARVLAVERYLKDQQLLGIWGCSGKLICTTNVPWNISWSNRNLKDIWGNMTWMQWEREIDNYTGLIYSLLTESQTQQEQNEKELLELDKWASLWNWFDISNWLWYIKIFIMIVGGLVGLRIIFTILNVVNRVRKGYSPLSFQTRLPATRGPDRPEETEEEGGGRDRGRSETLVTGFLALIWDDLRSLCLFIYHRLRDLLLIATRSVELLGRRGWELLKYLWNLLQYWGQELRNSAVSLLNATAIAVAEGTDRIIEVAQRIGRAIIHIPRRIRQGAERALL

Target: antibody 10-1074
Assay: neutralization IC50; higher = virus less sensitive to the antibody
Procedure: (§1)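 Pseudovirus bearing the Env chain mixed with antibody, from 50 µg/ml in fivefold dilutions, on TZM-bl reporter cells, in duplicate.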

First: B1
Second: B2
The “neutralization IC50” value of the first is 1.8-fold lower: 0.01 µg/mL for the first, 0.018 µg/mL for the second.

For B3, the “neutralization IC50” value was 0.052 µg/mL.

Target: antibody 3BNC117
Assay: as above
Procedure: as §1

Going from B1 to B2, the “neutralization IC50” value rises from 0.084 µg/mL to 0.149 µg/mL (1.8-fold).

For B3, the “neutralization IC50” value was 0.147 µg/mL.

Target: antibody 10-1074
Assay: neutralization IC80; higher = virus less sensitive to the antibody
Procedure: as §1

Going from B1 to B2, the “neutralization IC80” value rises from 0.029 µg/mL to 0.046 µg/mL (1.6-fold).

For B3, the “neutralization IC80” value was 0.145 µg/mL.

Target: antibody 3BNC117
Assay: as above
Procedure: as §1

Going from B1 to B2, the “neutralization IC80” value rises from 0.242 µg/mL to 0.507 µg/mL (2.1-fold).

B3 was tested, and the “neutralization IC80” value was 0.484 µg/mL.

Source: the supplement of paper PMC12637763
